Consider two substances from PMC11053489 (Viruses, 2024).

The nature of series [1]: Peak plasma concentration. As to conditions: Table 1; Cmax × Fun.
The subject of series [2] is SARS-CoV-2 (hCoV-19/USA-WA1/2020) in Caco-2 cells.
The test system of series [3] is SARS-CoV-2 (hCoV-19/USA-WA1/2020) in Calu-3 cells. It is filed as cell-based.
The test system of series [4] is COVID-19 / SARS-CoV-2 infection. To be noted: topical nasal spray, 300 hospital personnel; cited from earlier work.
The subject of series [5] is SARS-CoV-2 (hCoV-19/USA-WA1/2020) in Vero CCL-81 cells. It is filed as cell-based.

As for VV116, the “Cmax (μM) {unbound}” value in series [1] is 8.37 µM. The “Caco-2 Unbound Cmax/EC50” value in series [2] (Caco-2) is 105.

Iota-Carrageenan: the EC50 is 500 nM in series [3], 700 nM in series [5] and 59200 nM in series [2] (read-out: Caco-2 SARS-CoV-2 EC50). Moreover, the relative risk reduction in series [4] is listed as 79.8%.

A word on the EC50: it is the midpoint of the concentration-response curve.
